Experimental data published in patent publication US20250090572A1 (priority 2020, published 2025).

Target: wild-type SARS-CoV-2 spike glycoprotein (SGP) receptor-binding domain (RBD) (Severe acute respiratory syndrome coronavirus 2, UniProt P0DTC2)
Set-up: unit not given beside the values

pentosan polysulfate [PPS] showed an IC50 of 74.
